Pooled drug test results. Numbers come from NIAID ChemDB, via PubChem.

Common to all: tests in culture; species: Cryptococcus neoformans; endpoint: MIC

Blank or dashed fields: not listed here. Lines come from different laboratories, so protocols vary.

SMILES | strain | read by | result
COc1cc(/C=C/C(=O)c2cc(OC)c(OC)c(OC)c2)cc(OC)c1OC | ATCC 32264 |  | >50 µg/mL
COc1cc(O)c2c(c1)C(=O)c1c(cc3c(c1O)-c1c(cc(C)c(C(=O)NC(C)C(=O)O)c1O)[C@H](OC1OC(C)CC(O)C1O)[C@H]3O)C2=O | IAM 4514 |  | 6.3 µg/mL
O=C1N2C3C(=COC=CC3O)CC23SSC12CC1=COC=CC(O)C1N2C3=O | E138 |  | 1 µg/mL
C=CC[C@@H]1/C=C(/C)C[C@H](C)C[C@H](OC)[C@H]2O[C@@](O)(C(=O)C(=O)N3CCCC[C@H]3C(=O)O[C@H](/C(C)=C/[C@@H]3CC[C@@H](O)[C@H](OC)C3)[C@H](C)[C@@H](O)CC1=O)[C@H](C)C[C@@H]2OC | H99 |  | 12.5 µg/mL
CCCCCCCCOCCCCC(=O)O |  |  | 300 µM
COc1cc(O)c2c(c1)C(=O)c1c(cc3c(c1O)-c1c(cc(C)c(C(=O)NC(C)C(=O)O)c1O)[C@H](O)[C@H]3OC1OC(C)C(O)C(O)C1O)C2=O | IAM 4514 |  | >100 µg/mL
CO[C@H]1C[C@H](O[C@H]2CC[C@@]3(C)C(=CC[C@H]4C5=CC(=O)[C@@H]6[C@@H](C)OC(=O)[C@]56CC[C@@H]43)C2)O[C@H](C)[C@H]1O[C@H]1C[C@H](OC)[C@H](O[C@H]2C[C@H](OC)[C@H](O[C@@H]3C[C@@H](OC)[C@@H](O)[C@H](C)O3)[C@@H](C)O2)[C@@H](C)O1 | IP 90526 | broth dilution / turbidity | 100 µg/mL
COc1cc2cc(/C=C/C(=O)c3ccc(Br)cc3)c(Cl)nc2cc1OC | ATCC 32264 |  | >50 µg/mL
C[C@@H]1[C@H](O)[C@@H](C)/C=C/C=C/CC/C=C/C=C/C=C/C=C/C(O[C@H]2O[C@H](C)[C@@H](O)[C@H](N)[C@@H]2O)CC2O[C@](O)(CC(O)C(O)CCC(O)CC(O)CC(O)CC(=O)O[C@H]1C)CC(O)C2C(=O)O | IP 90526 | broth dilution / turbidity | 12.5 µg/mL
CCCCCCCCCCCOCC(=O)O |  |  | 300 µM
COC(=O)c1cc(O)c(O)c(O)c1 | ATCC 208821 | broth dilution | 100 µg/mL
CO[C@H]1C[C@H](O[C@H]2CC[C@@]3(C)C(=CC[C@H]4C5=CC(=O)[C@@H]6[C@@H](C)OC(=O)[C@]56CC[C@@H]43)C2)O[C@H](C)[C@H]1O | IP 90526 | broth dilution / turbidity | 50 µg/mL
CC1(C)C=C2C3CCC4[C@@]5(C)CCC(O)C(C)(C)C5CC[C@@]4(C)[C@]3(C)CC[C@@]2(C(=O)O)CC1 | ATCC 208821 | broth dilution | >200 µg/mL
COc1cc(C(=O)CC(c2cc(OC)c(OC)c(OC)c2)C(C#N)C#N)cc(OC)c1OC | ATCC 32264 |  | >50 µg/mL
O=C(O)c1cc(O)c(O)c(O)c1 | ATCC 208821 | broth dilution | 100 µg/mL
O=C(/C=C/c1ccco1)c1ccc(Cl)cc1Cl | ATCC 32264 |  | >50 µg/mL
CNC1C(C)OC(O[C@H]2c3cc(C)c(C(=O)NC(C)C(=O)O)c(O)c3-c3c(cc4c(c3O)C(=O)c3cc(OC)cc(O)c3C4=O)[C@@H]2O)C(O)C1OC1OCC(O)C(O)C1OC1OCC(O)C(O)C1O | IAM 4514 |  | 25 µg/mL
CO[C@H]1C[C@H](O[C@H]2CC[C@@]3(C)C(=CC[C@H]4C5=CC(=O)[C@@H]6[C@@H](C)OC(=O)[C@]56CC[C@@H]43)C2)O[C@H](C)[C@H]1O[C@H]1C[C@H](OC)[C@H](O[C@@H]2C[C@@H](OC)[C@@H](O[C@@H]3O[C@H](CO)[C@@H](O)[C@H](O)[C@H]3O)[C@H](C)O2)[C@@H](C)O1 | IP 90526 | broth dilution / turbidity | 25 µg/mL
C[C@@H]1O[C@@H](OC2[C@H](O[C@H]3CC[C@@]4(C)[C@@H](CC[C@]5(C)[C@@H]4CC=C4[C@@H]6CC(C)(C)CC[C@]6(C(=O)O[C@@H]6O[C@H](COC7O[C@H](CO)[C@@H](O[C@@H]8O[C@@H](C)[C@H](O)[C@@H](O)[C@H]8O)[C@H](O)[C@H]7O)[C@@H](O)[C@H](O)[C@H]6O)CC[C@]45C)[C@]3(C)CO)OC[C@H](O)[C@@H]2O)[C@H](O)[C@H](O)[C@H]1O | KCTC 7224 |  | >200 µg/mL
CCCCCCCCCOCCCC(=O)O |  |  | 300 µM
CC[C@H]1/C=C(\C)[C@H](O)[C@H](C)C[C@H](OC)[C@H]2O[C@@](O)(C(=O)C(=O)N3CCCC[C@H]3C(=O)O[C@H](/C(C)=C/[C@@H]3CC[C@@H](O)[C@H](OC)C3)[C@H](C)[C@@H](O)CC1=O)[C@H](C)C[C@@H]2OC | H99 |  | >42 µg/mL
CO[C@H]1C[C@H](O[C@H]2CC[C@@]3(C)C(=CC[C@@H]4[C@@H]3CC[C@]35C(=O)O[C@H](C)[C@H]3C(=O)C[C@]45O)C2)O[C@H](C)[C@H]1O[C@H]1C[C@H](OC)[C@H](O[C@@H]2C[C@@H](OC)[C@@H](O)[C@H](C)O2)[C@@H](C)O1 | IP 90526 | broth dilution / turbidity | 50 µg/mL
O=C(/C=C/c1cc2ccccc2nc1Cl)c1ccccc1 | ATCC 32264 |  | >50 µg/mL
COc1cc(O)c2c(c1)C(=O)c1c(cc3c(c1O)-c1c(cc(C)c(C(=O)NC(C)C(=O)O)c1O)[C@H](OC1OC(C)C4C(O[C@H](OCCO)CN4C)C1O)[C@H]3O)C2=O | IAM 4514 |  | 3.1 µg/mL
C[C@H]1OC(Oc2ccc3c(=O)c(-c4ccc(O)cc4)coc3c2)[C@@H](O)[C@@H](O)[C@H]1O | B42419 |  | 7 µg/mL
C[C@@H]1O[C@@H](OC2[C@H](O[C@H]3CC[C@@]4(C)[C@@H](CC[C@]5(C)[C@@H]4CC=C4[C@@H]6CC(C)(C)CC[C@@]6(C(=O)O)CC[C@]45C)[C@]3(C)CO)OC[C@H](O)[C@@H]2O)[C@H](O)[C@H](O[C@@H]2O[C@H](CO)[C@@H](O)[C@H](O)[C@H]2O)[C@H]1O | KCTC 7224 |  | >200 µg/mL
COc1cc(O)c2c(c1)C(=O)c1c(cc3c(c1O)-c1c(cc(C)c(C(=O)NC(C)C(=O)O)c1O)[C@H](OC1COC4C(OC5OCC(O)C(O)C5O)C1OC(=O)N4C)[C@H]3O)C2=O | IAM 4514 |  | 25 µg/mL
COc1ccc(/C=C/C(=O)c2ccc(OC)c(OC)c2)cc1OC | ATCC 32264 |  | >50 µg/mL
[Cl-].[Li+] | H99 ΔFRR1 mutant |  | >42 µg/mL
O=C(/C=C/c1ccccc1[N+](=O)[O-])c1ccccc1 | ATCC 32264 |  | >50 µg/mL
CN[C@@H]1[C@H](O)[C@@H](O)[C@H](O[C@H]2c3cc(C)c(C(=O)N[C@H](C)C(=O)O)c(O)c3-c3c(cc4c(c3O)C(=O)c3cc(OC)cc(O)c3C4=O)[C@@H]2O)O[C@@H]1C | IAM 4514 |  | 1.6 µg/mL

For reference, 3 entries again:

{"SMILES": "CO[C@H]1C[C@H](O[C@H]2CC[C@@]3(C)C(=CC[C@H]4C5=CC(=O)[C@@H]6[C@@H](C)OC(=O)[C@]56CC[C@@H]43)C2)O[C@H](C)[C@H]1O[C@H]1C[C@H](OC)[C@H](O[C@@H]2C[C@@H](OC)[C@@H](O[C@@H]3O[C@H](CO)[C@@H](O)[C@H](O)[C@H]3O)[C@H](C)O2)[C@@H](C)O1", "strain": "IP 90526", "read by": "broth dilution / turbidity", "result": "25 µg/mL"}
{"SMILES": "COc1ccc(/C=C/C(=O)c2ccc(OC)c(OC)c2)cc1OC", "strain": "ATCC 32264", "result": ">50 µg/mL"}
{"SMILES": "CO[C@H]1C[C@H](O[C@H]2CC[C@@]3(C)C(=CC[C@H]4C5=CC(=O)[C@@H]6[C@@H](C)OC(=O)[C@]56CC[C@@H]43)C2)O[C@H](C)[C@H]1O[C@H]1C[C@H](OC)[C@H](O[C@H]2C[C@H](OC)[C@H](O[C@@H]3C[C@@H](OC)[C@@H](O)[C@H](C)O3)[C@@H](C)O2)[C@@H](C)O1", "strain": "IP 90526", "read by": "broth dilution / turbidity", "result": "100 µg/mL"}